Data: article PMC5536023, “Recombinant Lipase from Gibberella zeae Exhibits Broad Substrate Specificity: A Comparative Study on Emulsified and Monomolecular Substrate” (2017)

Legend:
[1] = biological target: T1, recombinant Gibberella zeae lipase (rGZEL) (Fusarium graminearum, UniProt Q6WER3); test: pH-stat hydrolysis of triglyceride emulsion; details: pH 7.0, 30-40 °C
[2] = biological target: T1, recombinant Gibberella zeae lipase (rGZEL); test: monomolecular film, zero-order trough; details: 50 mM phosphate pH 6.0, room temperature, beta-cyclodextrin in subphase, surface pressure 30 mN/m

| Structure (SMILES) | pH-stat hydrolysis of triglyceride emulsion [1] | monomolecular film, zero-order trough [2] |
| --- | --- | --- |
| CCCCCCCC(=O)OCC(COC(=O)CCCCCCC)OC(=O)CCCCCCC | Highest hydrolytic activity was found for TC8 |  |
| CCCCCCCC/C=C\CCCCCCCC(=O)OC[C@H](COP(=O)([O-])OCC[N+](C)(C)C)OC(=O)CCCCCCC/C=C\CCCCCCCC |  | For DOPC, PE, PI, PA, and PG, maximum specific activities were found |
